In US20110118209A1 (priority 2006, published 2011):

Test system: Lewis Lung Carcinoma
Assay: Response of s.c. Lewis lung carcinoma in mice
Details: for T − C (tumor growth delay): to 750 mg; for Highest non-toxic dosage: IP
[1] = 30 mg/kg/dose IP Day 2 Q5 min × 7

## NP(=O)(O)N(CCCl)CCCl
[1]
  Log kill total: 1.5 log10
  T − C (tumor growth delay): 6.1 days
200 mg/kg IP Day 2 Single dose
  Log kill total: 1.2 log10
  T − C (tumor growth delay): 4.9 days
Day 2 Q5 min × 7
  Highest non-toxic dosage: 30 mg kg^−1/dose
Day 2 Single dose
  Highest non-toxic dosage: 200 mg kg^−1/dose
